Results of unrelated studies side by side (data: NIAID ChemDB).

Shared fields: tests in culture; agent: HIV-1

ECn: concentration that inhibits the pathogen or its effect by n%. Rows are shuffled and stem from different studies. Blank or dashed fields: not listed here.

structure,mutations,read-out,cell line,strain,method,result
CC(C)(C)[Si](C)(C)OC[C@H]1O[C@@H](n2ccc(=O)n(CC(=O)O)c2=O)[C@H](O[Si](C)(C)C(C)(C)C)[C@@H]1O,-,EC50,MT-4,IIIB,cytopathic effect / trypan blue,>10 µM
CN1CCN(C2=Nc3cc(Cl)ccc3Nc3ccc(O)cc32)CC1,-,EC50,CEM-T4 + CEM,IIIB,cytopathic effect / MTT,>18 µg/mL
CCCCCCCCCCCCCCCCCC(=O)OCC(COP(=O)(O)OP(=O)(O)OC[C@@H]1CC[C@H](n2cc(C)c(=O)[nH]c2=O)O1)OC(=O)CCCCCCCCCCCCCCCCC,-,EC50,HeLa + HELA CD4+,-,plaque count,1 µM
Cc1cc2c(C(C)C)c(O)c(O)c(C=NCCS(=O)(=O)O)c2c(O)c1-c1c(C)cc2c(C(C)C)c(O)c(O)c(C=NCCS(=O)(=O)O)c2c1O,-,EC50,PBMC,LAV,-,17.3 µM
CCCCCCCCCCCCCCCCCCCCCCOCC(C)(COCCCCCCCCCCCCCCCCCCCCCC)CO[C@]1(C(=O)O)C[C@H](OS(=O)(=O)O)[C@@H](NC(C)=O)[C@H]([C@H](OS(=O)(=O)O)[C@@H](COS(=O)(=O)O)OS(=O)(=O)O)O1,-,EC50,H9,IIIB,p24,1 µM
CN1CCN(C2=Nc3cc(O)ccc3Nc3ccccc32)CC1,-,EC50,CEM-T4 + CEM,IIIB,cytopathic effect / MTT,37 µg/mL
Cc1cc2c(C(C)C)c(O)c(O)c(C=O)c2c(O)c1-c1c(C)cc2c(C(C)C)c(O)c(O)c(C=O)c2c1O,-,EC50,PBMC,LAV,-,1.7 µM
CCCCCCCCCCCCCCCCCCOC[C@H](CO[C@]1(C(=O)O)C[C@H](OS(=O)(=O)O)[C@@H](NC(C)=O)[C@H]([C@H](OS(=O)(=O)O)[C@@H](COS(=O)(=O)O)OS(=O)(=O)O)O1)OC,-,EC50,H9,IIIB,p24,19 µM
Cc1cc2c(C(C)C)c(O)c(O)c(/C=N/O)c2c(O)c1-c1c(C)cc2c(C(C)C)c(O)c(O)c(/C=N/O)c2c1O,-,EC50,PBMC,LAV,-,0.41 µM
CN1CCN(C2=Nc3cc(Cl)ccc3Nc3ccccc32)CC1,-,EC50,CEM-T4 + CEM,IIIB,cytopathic effect / MTT,>21 µg/mL
O=S(Cc1[nH]c2ccccc2c1Sc1ccccc1)c1ccccc1,-,EC50,MT-4,IIIB,p24 / ELISA,<0.4 µM
COC(=O)Cn1c(=O)c(C)cn([C@H]2C[C@H](N=[N+]=[N-])[C@@H](CO[Si](C)(C)C(C)(C)C)O2)c1=O,-,EC50,MT-4,IIIB,cytopathic effect / trypan blue,>10 µM
OCCOCCN1CCN(C2=Nc3ccccc3Sc3ccccc32)CC1,-,EC50,MT-2,IIIB,cytopathic effect / MTT,>17 µg/mL
CCCCCCCCCCCCCCOC[C@H](CO[C@]1(C(=O)O)C[C@H](O)[C@@H](NC(C)=O)[C@H]([C@H](O)[C@H](O)CO)O1)OCCCCCCCCCCCCCC,-,EC50,H9,IIIB,p24,56 µM
COC(=O)CCn1c(=O)c(C)cn([C@@H]2O[C@H](CO[Si](C)(C)C(C)(C)C)[C@@H](O)[C@H]2O[Si](C)(C)C(C)(C)C)c1=O,-,EC50,CEM,IIIB,syncytia,>10 µM
CC(C)=CCN1Cc2cc(Cl)cc3[nH]c(=S)n(c23)C[C@@H]1C,RT-K70R L100I,EC50,MT-4,-,-,<3 µM
NC(=O)c1[nH]c2ccc(Cl)cc2c1S(=O)c1ccccc1,-,EC50,MT-4,IIIB,p24 / ELISA,<0.2 µM
Cc1cn([C@@H]2O[C@H](CO[Si](C)(C)C(C)(C)C)[C@@H](O[Si](C)(C)C(C)(C)C)[C@H]2O)c(=O)n(CCO)c1=O,-,EC50,MT-4,IIIB,cytopathic effect / trypan blue,32 µM
Cc1cn([C@H]2C[C@@H]3NC(NC#N)=NC[C@H]3O2)c(=O)[nH]c1=O,-,EC50,CEM,IIIB,cytopathic effect / MTT,>100 µg/mL
COC(=O)c1[nH]c2ccc(Cl)cc2c1Sc1ccccc1,-,EC95,MT-4,IIIB,p24 / ELISA,1.5 µM
CN1CCN(C2=c3cc(O)ccc3=Nc3ccc(Cl)cc3N2O)CC1,-,EC50,MT-2,IIIB,cytopathic effect / MTT,81 µg/mL
Cc1cn([C@@H]2O[C@H](CO[Si](C)(C)C(C)(C)C)[C@@H](O)[C@H]2O[Si](C)(C)C(C)(C)C)c(=O)n(CC(=O)ON)c1=O,-,EC50,CEM,IIIB,syncytia,>2 µM
CCCCCCCCCCCCCCCCCCCCCCCCCCOC[C@H](CO[C@]1(C(=O)O)C[C@H](OS(=O)(=O)O)[C@@H](NC(C)=O)[C@H]([C@H](OS(=O)(=O)O)[C@@H](COS(=O)(=O)O)OS(=O)(=O)O)O1)OCCCCCCCCCCCCCCCCCCCCCCCCCC,-,EC50,H9,IIIB,p24,>100 µM
Oc1ccc2c(c1)Nc1ccccc1C(N1CCNCC1)=N2,-,EC50,CEM-T4 + CEM,IIIB,cytopathic effect / MTT,>173 µg/mL
NC(=O)c1[nH]c2ccc(Cl)cc2c1Sc1ccccc1,-,EC50,MT-4,IIIB,p24 / ELISA,<0.2 µM
CC(C)(C)NC(=O)[C@@H]1CN(Cc2cccnc2)CCN1C[C@@H](O)C[C@@H](Cc1ccccc1)C(=O)N[C@H]1c2ccccc2C[C@H]1O,-,EC50,MT-2,LAI Laboratory isolate,cytopathic effect / MTT,0.019 µM
CN=C1CN=C(c2ccc[nH]2)c2cc(Cl)ccc2N1,-,EC50,MT-4,IIIB,cytopathic effect / MTT,>46 µM
Cc1c(O)cccc1C(=O)N[C@@H](CSc1ccccc1)[C@H](O)CN1C[C@H]2CCCC[C@H]2C[C@H]1C(=O)NC(C)(C)C,-,EC50,MT-2,NL4-3 Laboratory clone,cytopathic effect / MTT,0.023 µM
CN1CCN(CC/C=C2/c3ccccc3Sc3ccc(S(=O)(=O)N(C)C)cc32)CC1,-,EC50,MT-2,IIIB,cytopathic effect / MTT,>5.6 µg/mL
O=S(Cc1[nH]c2ccccc2c1S(=O)c1ccccc1)c1ccccc1,-,EC50,MT-4,IIIB,p24 / ELISA,>3 µM
CSc1ccc2c(c1)N=C(N1CCNCC1)c1ccccc1N2,-,EC50,CEM-T4 + CEM,IIIB,cytopathic effect / MTT,23 µg/mL
COc1ccc(S(=O)(=O)N(CC(C)C)C[C@@H](O)[C@H](Cc2ccccc2)NC(=O)O[C@H]2CO[C@H]3OCC[C@H]32)cc1,PR-L10I I15V K20R M36I M46L I54V K55R I62V L63P K70Q V82A L89M,EC50,PBMC,Clinical isolate,p24,0.0013 µM
Cc1cn([C@H]2C[C@H](Nc3nc(N)nn3C)[C@@H](CO)O2)c(=O)[nH]c1=O,-,EC50,CEM,IIIB,cytopathic effect / MTT,55 µg/mL
CC(=O)Oc1c(OC(C)=O)c(C#N)c2c(OC(C)=O)c(-c3c(C)cc4c(C(C)C)c(OC(C)=O)c(OC(C)=O)c(C#N)c4c3OC(C)=O)c(C)cc2c1C(C)C,-,EC50,PBMC,LAV,-,5 µM
CN(C)C(=O)c1[nH]c2ccccc2c1Sc1ccccc1,-,EC95,MT-4,IIIB,p24 / ELISA,>3 µM
c1nc[nH]n1,-,EC50,CEM,IIIB,cytopathic effect / MTT,>100 µg/mL
CCCCCCCCCCCCCCCCCCCCCCOC[C@H](CO[C@]1(C(=O)O)C[C@H](OS(=O)(=O)O)[C@@H](NC(C)=O)[C@H]([C@H](OS(=O)(=O)O)[C@@H](COS(=O)(=O)O)OS(=O)(=O)O)O1)OCCCCCCCCCCCCCCCCCCCCCC,-,EC50,H9,IIIB,syncytia,1 µM
O=c1[nH]cnc2c1ncn2[C@H]1CC[C@@H](CO)O1,-,EC50,PBMC,LAI Laboratory isolate,p24,0.62 µM
Cc1cn([C@H]2C[C@H](N=[N+]=[N-])[C@@H](CO)O2)c(=O)[nH]c1=O,-,EC50,C8166,MN,ELISA,0.004 µg/mL
CC(C)(C)[Si](C)(C)OC[C@H]1O[C@@H](n2cnc3c(=O)n(CC(=O)O)cnc32)[C@H](O[Si](C)(C)C(C)(C)C)[C@@H]1O,-,EC50,CEM,IIIB,syncytia,76 µM